Experimental data published in patent US8932597B2 (priority 2008, dated 2015).

Test system: HuM2e antibody 8I10
Assay: CLIPS (PepScan) peptide ELISA, binding to antibody 8I10
Set-up: species or system human
Conditions: concentration not given

**Q.** For CSLLTEVGSLLTEV, which “Binding to 8I10 (in words)” value is on record?
**A.** best 8I10 binder
